The record followed here is PMC7304579.

In the assay the target is HIV-1 CO6980v0c22 gp145 produced in Expi293F cells (HIV-1 subtype C, strain CO6980v0c22). Kind of assay: BLI; Octet Red 96; biotinylated gp145 immobilised on streptavidin biosensors (10 ug/mL, 250 s, ~50% saturation); analyte in six two-fold dilutions; dissociation in kinetics buffer; global fit to a 1:1 binding model.

As to “CD4 (from UniProt P01730 26-458) (receptor)”, the Kd was determined as 1.2 nM.
